The experiment relates to cholera toxin-induced intestinal fluid secretion. More on the design: species or system mice. Conditions: mouse, in vivo.

For the substance “3-[(3-trifluoromethyl)phenyl]-5-[(4-carboxyphenyl)methylene]-2-thioxo-4-thiazolidinone [CFTRinh-172]”, the “intestinal fluid accumulation (ratio of intestinal weight before vs. after luminal fluid removal)” value was “remarkably reduced intestinal fluid accumulation”.

The values are drawn from patent US20040063695A1, “Cystic fibrosis transmembrane conductance regulator protein inhibitors and uses thereof” (priority 2002, published 2004).
